Pooled drug test results. Numbers come from NIAID ChemDB, via PubChem.

Shared fields: target-level tests; species: Plasmodium falciparum

Lines come from different laboratories, so protocols vary. Blank or dashed fields: not listed here. ICn is the concentration giving n% inhibition.

| smiles | target | strain | read by | measure | result |
|---|---|---|---|---|---|
| C=C1C(=O)C[C@@H]2/C=C(\COC(C)=O)CC/C=C(/C=O)[C@H](OC(C)=O)[C@@H](OC(=O)C(C)CC)[C@@H]12 | Lactate dehydrogenase | 3D7 | - | IC50 | 0.94 µg/mL |
| COc1cc(OC)c(C=C2SC(=O)N(CC(=O)N3CCN(c4ccc(C#N)cc4)CC3)C2=O)c(OC)c1 | Falcipain-2 | - | fluorescence | IC50 | 12.24 µM |
| O=C1CSC(Nc2ccc3ccccc3c2)=C1CONCC1CC1 | Dihydroorotate dehydrogenase | - | - | IC50 | >50 µM |
| CC(C)C[C@H](NC(=O)C1CCC(=O)CC1)C(=O)N[C@H](/C=C/S(=O)(=O)c1ccccc1)CCc1ccccc1 | Falcipain-2 | - | fluorescence | IC50 | 0.0691 µM |
| O=C(CCC(c1ccccc1)P(=O)(O)O)NO | PfDXR | - | absorbance | IC50 | 0.0116 µM |
| CCN(CC)CCCC(C)Nc1ccnc2cc(Cl)ccc12 | Histidine-rich protein 2 | - | ELISA | IC50 | 1.03 µM |
| O=C(CN1C(=O)SC(=Cc2ccc(C(F)(F)F)cc2)C1=O)N1CCN(c2ccccc2)CC1 | Falcipain-2 | - | fluorescence | IC50 | 18.04 µM |
| CCCNOCC1=C(Nc2ccc3ccccc3c2)SCC1=O | Dihydroorotate dehydrogenase | - | - | IC50 | >50 µM |
| O=C1C=C(C(F)F)C(=O)c2ccccc21 | Glutathione reductase | - | - | IC50 | 22.8 µM |
| CCOC(=O)C1=C(O)CSC1=Nc1ccc(Br)cc1C | Dihydroorotate dehydrogenase | - | - | IC50 | >50 µM |
| CCN1C(=O)SC(=Cc2c(OC)cc(OC)cc2OC)C1=O | Falcipain-2 | - | fluorescence | IC50 | >50 µM |
| N#Cc1cccc(NC(=O)CP(=O)(O)O)c1 | PfDXR | - | absorbance | IC50 | >500 µM |
| O=C1C(c2ccc(-c3ccc(Cl)cc3)cc2)=C(C(F)(F)F)C(=O)c2ccccc21 | Glutathione reductase | - | - | IC50 | >25 µM |
| CC(C)C[C@H](NC(=O)C1CCC2(CC1)OOC1(OO2)C2CC3CC(C2)CC1C3)C(=O)N[C@H](/C=C/S(C)(=O)=O)CCc1ccccc1 | Falcipain-2 | - | fluorescence | IC50 | 1.53 µM |
| COc1ccc(C=C2SC(=O)N(CC(=O)N3CCN(c4ccccc4)CC3)C2=O)cc1 | Falcipain-2 | - | fluorescence | IC50 | >50 µM |
| CC(C)C[C@H](NC(=O)C1CCC2(CC1)OOC1(OO2)C2CC3CC(C2)CC1C3)C(=O)N[C@H](/C=C/S(=O)(=O)c1ccccc1)Cc1ccccc1 | Falcipain-2 | - | fluorescence | IC50 | 8.093 µM |
| CC1=C(C2CCC(c3ccc(Cl)cc3)CC2)C(=O)c2ccccc2C1=O | Glutathione reductase | - | - | IC50 | >25 µM |
| CC(=O)N(O)CCCP(=O)(O)O | PfDXR | - | absorbance | Ki | 0.0026 µM |
| O=C(CN1C(=O)SC(=Cc2cccc(OC(F)(F)F)c2)C1=O)N1CCN(c2ccccc2)CC1 | Falcipain-2 | - | fluorescence | IC50 | 44.97 µM |
| O=C(N[C@H](/C=C/S(=O)(=O)c1ccccc1)CCc1ccccc1)C1CCC2(CC1)OOC1(OO2)C2CC3CC(C2)CC1C3 | Falcipain-2 | - | fluorescence | IC50 | 18.46 µM |
| COc1cccc(NC(=O)CCP(=O)(O)O)c1 | PfDXR | - | absorbance | IC50 | >500 µM |
| CCCCNOCC1=C(Nc2ccc3ccccc3c2)SCC1=O | Dihydroorotate dehydrogenase | - | - | IC50 | >50 µM |
| O=C1C=C(C(F)(F)F)C(=O)c2ccccc21 | Glutathione reductase | - | - | IC50 | 7 µM |

For reference, 2 entries again:

smiles | target | strain | read by | measure | result
COc1ccc(C=C2SC(=O)N(CC(=O)N3CCN(c4ccccc4)CC3)C2=O)cc1 | Falcipain-2 | - | fluorescence | IC50 | >50 µM
N#Cc1cccc(NC(=O)CP(=O)(O)O)c1 | PfDXR | - | absorbance | IC50 | >500 µM